Measured values: PMC5548917, “Selective cytotoxicity of a novel immunotoxin based on pulchellin A chain for cells expressing HIV envelope” (Scientific Reports, 2017)

T1: gp41 loop peptide antigen (linear peptide, HIV-1 consensus clade B sequence) (HIV-1 consensus clade B (synthetic …))
T1 chain: LGIWGCSGKLICTT

B1: MAb 7B2 (antibody, V domains shown)
VH: QVQLVQSGGGVFKPGGSLRLSCEASGFTFTEYYMTWVRQAPGKGLEWLAYISKNGEYSKYSPSSNGRFTISRDNAKNSVFLQLDRLSADDTAVYYCARADGLTYFSELLQYIFDLWGQGARVTVSS
VL: DIVMTQSPDSLAVSPGERATIHCKSSQTLLYSSNNRHSIAWYQQRPGQPPKLLLYWASMRLSGVPDRFSGSGSGTDFTLTINNLQAEDVAIYYCHQYSSHPPTFGHGTRVELR
notes: source: tissue culture (hybridoma) supernatant, purified on Protein A agarose beads
B2: 7B2-PAC immunotoxin (MAb 7B2 conjugated to recombinant pulchellin A chain) (antibody, V domains shown)
VH: B1 VH
VL: B1 VL

Target: T1, gp41 loop peptide antigen (linear …)
Assay: ELISA

| Binder | binding result (both partners purified) | binding result |
| --- | --- | --- |
| B1 | binds | – |
| B2 | – | binds |

Like-named read-outs stand apart in the source and are kept apart here.
